A mixed list of measured activities; the numbers were collected in NIAID ChemDB.

Shared fields: whole-cell or culture tests; organism: HIV-1; read by: cytopathic effect; measure: EC50

Lines come from different laboratories, so protocols vary. An empty or dashed field is not shown. ECn is the concentration giving n% inhibition of infection, replication or growth.

{"SMILES": "Fc1cccc(F)c1C1SCc2nc3ccccc3n21", "cell line": "CEM", "mutations": "RT-L100I", "result": "3.12 µM"}
{"SMILES": "Cc1cc(C)nc(N2C(=O)CSC2c2c(Cl)cccc2Cl)n1", "cell line": "CEM", "mutations": "RT-Y188H", "result": "7.9 µM"}
{"SMILES": "O=c1[nH]cnc2c1ncn2[C@H]1CC[C@@H](CO)O1", "strain": "BI-12.96 (HXB2(RT-A62V S68G T69D V75I F77L F116Y Q151M))", "cell line": "MT-4", "mutations": "RT-A62V S68G T69D V75I F77L F116Y Q151M", "result": ">400 µM"}
{"SMILES": "Cc1cn([C@H]2C[C@H](N=[N+]=[N-])[C@@H](CO)O2)c(=O)[nH]c1=O", "strain": "D-3 (RT-V108I M184I)", "cell line": "CEM", "mutations": "RT-V108I M184I", "result": "0.0042 µM"}
{"SMILES": "CNC(=O)[C@@H](NC(=O)[C@H](OCc1ccccc1)[C@@H](O)[C@H](O)[C@@H](OCc1ccccc1)C(=O)N[C@H](C(=O)NC)C(C)C)C(C)C", "cell line": "MT-4", "result": "22.9 µM"}
{"SMILES": "Cc1cn([C@H]2C[C@H](N=[N+]=[N-])[C@@H](CO)O2)c(=O)[nH]c1=O", "strain": "RF", "cell line": "C8166", "result": "<1 µg/mL"}
{"SMILES": "Cc1cn([C@H]2C=C[C@@H](CO)O2)c(=O)[nH]c1=O", "strain": "FO-01.95", "cell line": "MT-4", "result": "1.72 µM"}
{"SMILES": "Cc1ccnc2c1NC(=O)c1cccnc1N2C1CC1", "strain": "IIIB", "cell line": "CEM", "result": "0.044 µM"}
{"SMILES": "CC(C)Nc1cccnc1N1CCN(C(=O)c2cc3cc(NS(C)(=O)=O)ccc3[nH]2)CC1", "strain": "C-1 (RT-K101E)", "cell line": "CEM", "mutations": "RT-K101E", "result": "0.0031 µg/mL"}
{"SMILES": "CNC(=O)C(NC(=O)[C@H](OCc1ccccc1)[C@H](O)[C@@H](O)[C@@H](OCc1ccccc1)C(=O)N[C@H](C(=O)NC)[C@@H](C)O)[C@@H](C)O", "cell line": "MT-4", "result": ">80 µM"}
{"SMILES": "Cc1cn([C@H]2C[C@H](N=[N+]=[N-])[C@@H](CO)O2)c(=O)[nH]c1=O", "cell line": "CEM", "mutations": "RT-Y188H", "result": "0.004 µM"}
{"SMILES": "CNC(=O)c1cccc(CN2[C@H](COc3ccccc3)[C@H](O)[C@@H](O)[C@@H](COc3ccccc3)N(Cc3cccc(C(=O)NC)c3)S2(=O)=O)c1", "cell line": "MT-4", "result": "13 µM"}
{"SMILES": "CC(C)=CCN1Cc2cc(Cl)cc3[nH]c(=S)n(c23)C[C@@H]1C", "strain": "IIIB", "cell line": "CEM", "mutations": "RT-Y181C", "result": "2 µg/mL"}
{"SMILES": "Cc1ccnc(N2C(=O)CSC2c2c(Cl)cccc2Cl)n1", "cell line": "CEM", "mutations": "RT-L100I", "result": "0.44 µM"}
{"SMILES": "CC(C)Nc1cccnc1N1CCN(C(=O)c2cc3cc(NS(C)(=O)=O)ccc3[nH]2)CC1", "strain": "HE", "cell line": "MOLT-4", "result": "0.05 µg/mL"}
{"SMILES": "CNC(=O)[C@@H](NC(=O)[C@H](OCc1ccc(Br)cc1)[C@H](O)[C@@H](O)[C@@H](OCc1ccc(Br)cc1)C(=O)N[C@H](C(=O)NC)C(C)C)C(C)C", "cell line": "MT-4", "result": "0.65 µM"}
{"SMILES": "Cc1cn([C@@H]2O[C@H](CO[Si](C)(C)C(C)(C)C)C3(OS(=O)(=O)C=C3N)[C@H]2O[Si](C)(C)C(C)(C)C)c(=O)n(C)c1=O", "strain": "IIIB", "cell line": "CEM", "mutations": "RT-L100I", "result": "0.041 µg/mL"}
{"SMILES": "Cc1cn([C@H]2C[C@H](N=[N+]=[N-])[C@@H](CO)O2)c(=O)[nH]c1=O", "strain": "FO-08.96 (HXB2 RT F77L F116Y Q151M)", "cell line": "MT-4", "mutations": "RT-F77L F116Y Q151M", "result": ">5 µM"}
{"SMILES": "CC(C)=CCOc1cc(NC(=S)c2ccsc2C)ccc1Cl", "strain": "IIIB", "cell line": "C8166", "result": "0.002 µg/mL"}
{"SMILES": "Cc1ccnc2c1NC(=O)c1cccnc1N2C1CC1", "strain": "A-0 (RT-L100I)", "cell line": "CEM", "mutations": "RT-L100I", "result": "0.019 µg/mL"}

The last 2 rows once more:

SMILES,strain,cell line,mutations,result
CC(C)=CCOc1cc(NC(=S)c2ccsc2C)ccc1Cl,IIIB,C8166,,0.002 µg/mL
Cc1ccnc2c1NC(=O)c1cccnc1N2C1CC1,A-0 (RT-L100I),CEM,RT-L100I,0.019 µg/mL